{
  "source": "patent US10716769B2",
  "about": "(GUANGZHOU JTREAT BIOSCI. LTD., priority 2015, dated 2020)",
  "key": {"HSV-I, VR733 strain": {"test_system": "HSV-I, VR733 strain", "assay": "Inhibition of cytopathic effects of Vero cells caused by herpes virus type I", "type": "cell-based", "settings": "SI = TC50/IC50", "source_text": "(§1) Vero cells (kidney cells of African green monkey) are used as viral hosts to test the inhibition degree of the samples to the cytopathic effects of Vero cells caused by herpes virus type I and type II.\n(§2) Vero cells (kidney cells of African green monkey) are used as viral hosts to test the inhibition degree of the samples to cytopathic effects of the Vero cell caused by herpes virus type I and type II.\n(§3) 1. Virus strains: HSV-I, VR733 strain, and HSV-II, SAV strain, which both are provided by ATCC.\n(§4) 2. Sample treatment: the sample is dissolved in DMSO at an appropriate concentration before use, and diluted with the culture medium 3 times at a total of 8 dilutions for test.\n(§5) 3. Positive control drug: acyclovir (ACV) produced by the Hubei Ke Yi pharmaceutical factory."}, "HSV-II, SAV strain": {"test_system": "HSV-II, SAV strain", "assay": "Inhibition of cytopathic effects of Vero cells caused by herpes virus type II", "type": "cell-based", "settings": "SI = TC50/IC50", "source_text": "as §1, §2, §3, §4, §5"}},
  "data": [
    {"smiles": "O=C(c1ccccc1O)c1ccccc1O", "note": "[2,2′-dihydroxybenzophenone]", "values": [
      {"measurement": "SI Against HSV-1", "setting": "HSV-I, VR733 strain", "value": 2.18},
      {"measurement": "SI Against HSV-II", "setting": "HSV-II, SAV strain", "value": 2.23}
    ]},
    {"smiles": "O=C(c1ccc(O)cc1O)c1ccc(O)cc1O", "note": "[2,4,2′,4′-tetrahydroxybenzophenone]", "values": [
      {"measurement": "SI Against HSV-1", "setting": "HSV-I, VR733 strain", "value": 2.22},
      {"measurement": "SI Against HSV-II", "setting": "HSV-II, SAV strain", "value": 2.11}
    ]},
    {"smiles": "O=C(c1ccccc1)c1ccc(O)c(O)c1O", "note": "[2,3,4-trihydroxybenzophenone]", "values": [
      {"measurement": "SI Against HSV-1", "setting": "HSV-I, VR733 strain", "value": 2.66},
      {"measurement": "SI Against HSV-II", "setting": "HSV-II, SAV strain", "value": 1.86}
    ]},
    {"smiles": "O=C(c1ccc(O)c(O)c1O)c1ccc(O)c(O)c1O", "note": "[2,3,4,2′,3′,4′-hexahydroxybenzophenone]", "values": [
      {"measurement": "SI Against HSV-1", "setting": "HSV-I, VR733 strain", "value": 1.26},
      {"measurement": "SI Against HSV-II", "setting": "HSV-II, SAV strain", "value": 1.14}
    ]}
  ]
}
